PubChem BioAssay AID1259414 | Drosophila RNAi Screening Center – 2018

Screen: 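Fly genes that alter Wolbachia amount inside host cells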 (primary screen)
Cell system: Drosophila JW18 cells infected with Wolbachia
Reagent: long dsRNA against Drosophila genes, 0.25 µg dsRNA per well of a 384-well plate
Time to read-out: 5 days
Treatment: cells persistently infected with Wolbachia before knock-down; no added drug
Measured: 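Imaged fluorescence in situ signal for Wolbachia 23S rRNA per DAPI-counted host cell, given as a robust z-score within each plate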
Scale: Wolbachia per cell robust z: higher = more Wolbachia per host cell than the plate typical
Hit rule: 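Hit when robust z is 1.5 or more, or -1.5 or less, in at least two of three replicates; excludes dsRNAs with several or no targets, genes not expressed in JW18 and well A1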
In all, the deposit lists about 24,000 reagents; this is an unselected part of those with a known target gene and a result. In the full data, about 1,210 (5%) were called active. 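Inactive calls also include excluded dsRNAs with several or no targets, genes unexpressed in JW18, and well A1, regardless of score.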

For CG9175 [DRSC03153], what does the deposit list?
Wolbachia per cell robust z, rep 1: 1.63; Wolbachia per cell robust z, rep 2: 0.294; Wolbachia per cell robust z, rep 3: 0.993; outcome: inactive

For CG9175 [DRSC41526], what does the deposit list?
Wolbachia per cell robust z, rep 1: 1.82; Wolbachia per cell robust z, rep 2: 1.71; Wolbachia per cell robust z, rep 3: 1.47; outcome: active

Which result is listed for CG12310 [DRSC09878]?
Wolbachia per cell robust z, rep 1: 0.5; Wolbachia per cell robust z, rep 2: 0.0995; Wolbachia per cell robust z, rep 3: 1.03; outcome: inactive

How did the screen score CG12310 [DRSC25358]?
Wolbachia per cell robust z, rep 1: -1.34; Wolbachia per cell robust z, rep 2: -8.83; Wolbachia per cell robust z, rep 3: 0.24; outcome: inactive

For CG11211 [DRSC04851], what does the deposit list?
Wolbachia per cell robust z, rep 1: 1.23; Wolbachia per cell robust z, rep 2: 1.52; Wolbachia per cell robust z, rep 3: 0.252; outcome: inactive

What did the screen give for Rpt4 (Regulatory particle triple-A ATPase 4) [DRSC18713]?
Wolbachia per cell robust z, rep 1: 1.23; Wolbachia per cell robust z, rep 2: 1.75; Wolbachia per cell robust z, rep 3: 1.33; outcome: inactive

How did the screen score Asator [DRSC17136]?
Wolbachia per cell robust z, rep 1: -0.32; Wolbachia per cell robust z, rep 2: -2.56; Wolbachia per cell robust z, rep 3: -2.56; outcome: active

How did the screen score lsn (larsen) [DRSC16081]?
Wolbachia per cell robust z, rep 1: -0.486; Wolbachia per cell robust z, rep 2: 1.16; Wolbachia per cell robust z, rep 3: 0.498; outcome: inactive

For lsn (larsen) [DRSC25700], how do the results read?
Wolbachia per cell robust z, rep 1: 0.853; Wolbachia per cell robust z, rep 2: 1.21; Wolbachia per cell robust z, rep 3: -0.351; outcome: inactive

Individual results from the list.
CG12310 [DRSC25358], Wolbachia per cell robust z, rep 3 = 0.24
Result of CG9175 [DRSC03153] in “outcome”: inactive
For “Wolbachia per cell robust z, rep 2”, CG9175 [DRSC41526] reads 1.71

More reagents follow.
Which result is listed for l(2)10685 (lethal (2) 10685) [DRSC00665]?
Wolbachia per cell robust z, rep 1: 0.0138; Wolbachia per cell robust z, rep 2: -3.74; Wolbachia per cell robust z, rep 3: -1.78; outcome: inactive

Which result is listed for l(2)10685 (lethal (2) 10685) [DRSC27739]?
Wolbachia per cell robust z, rep 1: 0.745; Wolbachia per cell robust z, rep 2: 0.666; Wolbachia per cell robust z, rep 3: 0.0914; outcome: inactive

What did the screen give for Cpr5C (Cuticular protein 5C) [DRSC18340]?
Wolbachia per cell robust z, rep 1: 0.944; Wolbachia per cell robust z, rep 2: 0.566; Wolbachia per cell robust z, rep 3: 0.183; outcome: inactive

With CG33687 [DRSC37822], how do the results read?
Wolbachia per cell robust z, rep 1: -0.462; Wolbachia per cell robust z, rep 2: 0.218; Wolbachia per cell robust z, rep 3: -1.55; outcome: inactive

With BoYb [DRSC11637], what does the deposit list?
Wolbachia per cell robust z, rep 1: -2.67; Wolbachia per cell robust z, rep 2: -1.23; Wolbachia per cell robust z, rep 3: 1.07; outcome: inactive

Which result is listed for BoYb [DRSC41513]?
Wolbachia per cell robust z, rep 1: 0.634; Wolbachia per cell robust z, rep 2: 0.981; Wolbachia per cell robust z, rep 3: 1.06; outcome: inactive

For rho-5 (rhomboid-5) [DRSC02847], how do the results read?
Wolbachia per cell robust z, rep 1: 0.229; Wolbachia per cell robust z, rep 2: 0.108; Wolbachia per cell robust z, rep 3: -0.997; outcome: inactive

What is on record for rho-5 (rhomboid-5) [DRSC26239]?
Wolbachia per cell robust z, rep 1: 0.052; Wolbachia per cell robust z, rep 2: -0.797; Wolbachia per cell robust z, rep 3: 0.578; outcome: inactive

How did the screen score CG9257 [DRSC03173]?
Wolbachia per cell robust z, rep 1: -0.4; Wolbachia per cell robust z, rep 2: -5.92; Wolbachia per cell robust z, rep 3: 0.305; outcome: inactive

For CG9257 [DRSC41372], what does the deposit list?
Wolbachia per cell robust z, rep 1: -0.727; Wolbachia per cell robust z, rep 2: -1.32; Wolbachia per cell robust z, rep 3: -0.774; outcome: inactive

Which result is listed for CG9393 [DRSC16486]?
Wolbachia per cell robust z, rep 1: 0.0601; Wolbachia per cell robust z, rep 2: -2.12; Wolbachia per cell robust z, rep 3: -0.0541; outcome: inactive

With RpL39 (Ribosomal protein L39) [DRSC04651], how do the results read?
Wolbachia per cell robust z, rep 1: 1.11; Wolbachia per cell robust z, rep 2: 2.85; Wolbachia per cell robust z, rep 3: 1.46; outcome: inactive

With CG6283 [DRSC16009], what does the deposit list?
Wolbachia per cell robust z, rep 1: -3.89; Wolbachia per cell robust z, rep 2: -1.83; Wolbachia per cell robust z, rep 3: -0.279; outcome: inactive

With CG6283 [DRSC29913], what does the deposit list?
Wolbachia per cell robust z, rep 1: 0.267; Wolbachia per cell robust z, rep 2: -0.249; Wolbachia per cell robust z, rep 3: -0.00205; outcome: inactive

For ORMDL (Orosomucoid 1-like) [DRSC11737], what was measured?
Wolbachia per cell robust z, rep 1: 1.23; Wolbachia per cell robust z, rep 2: -8.43; Wolbachia per cell robust z, rep 3: -0.0558; outcome: inactive

What did the screen give for ORMDL (Orosomucoid 1-like) [DRSC27778]?
Wolbachia per cell robust z, rep 1: 0.166; Wolbachia per cell robust z, rep 2: 0.822; Wolbachia per cell robust z, rep 3: 0.505; outcome: inactive
